From PMC5651824, “Membrane binding of the insertion sequence of Proteus vulgaris L-amino acid deaminase stabilizes protein structure and increases catalytic activity” (Scientific Reports, 2017)

Tested on: N[C@@H](Cc1ccccc1)C(=O)O
Experiment: purified protein
Settings: without membrane, 50 mM potassium phosphate pH 7.5, 37 °C, 5 µM enzyme, 5 min

FL-pvLAAD (Proteus vulgaris; F355A/I345A/I352A/L347A/L351A)
Km: 10.87 ± 2.25 mM
